According to paper PMC8262909, “LcrQ Coordinates with the YopD-LcrH Complex To Repress lcrF Expression and Control Type III Secretion by Yersinia pseudotuberculosis” (2021):

Target: LcrH (UniProt P23995)
Experiment: bacterial two-hybrid assay
Details: parent: est. 1500; read off a plot

First: LcrQ L68A; L102A
Second: LcrQ F46A; L102A
The response of the first is higher: 800 M.U for the first, 200 M.U for the second.

Going from LcrQ L68A to LcrQ F46A; L68A, the response falls from 1500 M.U to 850 M.U.

LcrQ L102A and LcrQ F46A are the same in response: 700 M.U for the first, 700 M.U for the second.
